A mixed list of measured activities; the numbers were collected in NIAID ChemDB.

All rows: growth or infection tests; organism: Rhinovirus

A number after MIC or MFC names an inhibition level or a share of isolates. ECn: concentration that inhibits the pathogen or its effect by n%. An empty or dashed field is not shown. Neighbouring rows are from separate reports.

smiles	cell line	strain	read by	read-out	result
COC(=O)c1cc(CCCOc2c(C)cc(-c3noc(C)n3)cc2C)on1	HeLa	Serotype 41	cytopathic effect	EC50	0.145 µg/mL
CCOC(=O)c1ccc(OCCOc2ccc(-c3snc(SC)c3C#N)cc2)cc1	HELA-OHIO	Serotype 51 (group B)	cytopathic effect	EC50	>2 µM
O=C(O)c1ccc(C2CC(=O)c3ccccc3O2)cc1	OHIO HELA	TYPE 1B	plaque count	EC50	13.79 µM
CO/N=C/c1ccc(OCCCCN2CCN(c3ccc(Cl)nn3)CC2)cc1	KB	TYPE 1A	cytopathic effect / visual reading	EC50	0.003 µg/mL
Cc1ccc(C(=O)CCCCCCOc2ccc(C3=NC(C)CO3)cc2)s1	HeLa	TYPE 14	cytopathic effect	EC50	0.26 µM
COc1ncnc2c1ncn2[C@@H]1O[C@H](CO)[C@@H](O)[C@@H]1O		TYPE 1B	cytopathic effect	EC50	>100 µM
Cc1ccc(Cn2cnc3c(N(C)C)nc(C(F)(F)F)nc32)cc1	M-HELA	Serotype 8	plaque count	EC50	>2.5 µM
CSc1nsc(-c2ccc(OCCOc3ccccc3)cc2)c1C#N	HELA-OHIO	Serotype 70 (group A)	cytopathic effect	EC50	>20 µM
CO/N=C/c1ccc(OCCC2CCN(c3ccc(Cl)nn3)CC2)cc1	KB	TYPE 1A	cytopathic effect / visual reading	EC50	<0.0032 µg/mL
NS(=O)(=O)c1ncnc2c1ncn2[C@@H]1O[C@H](CO)[C@@H](O)[C@@H]1O		TYPE 1A	cytopathic effect	EC50	>320 µM
O=C(O)c1ccc(-c2cc(=O)c3cc(Cl)ccc3o2)cc1	OHIO HELA	TYPE 1B	plaque count	EC50	>12.5 µM
CN(C)c1nc(C(F)(F)F)nc2c1ncn2Cc1ccc(S(C)(=O)=O)cc1	M-HELA	Serotype 2	plaque count	EC50	>8 µM
NSc1ncnc2c1ncn2[C@H]1C[C@H](O)[C@@H](CO)O1		TYPE 1A	cytopathic effect	EC50	>320 µM
COc1cc(C(=O)Oc2c(-c3ccc(Cl)cc3)oc3ccccc3c2=O)cc(OC)c1OC(C)=O	HeLa	Serotype 14	plaque count	EC50	>1.56 µM
Cc1ccc(Cn2cnc3c(N(C)C)nc(C(F)(F)F)nc32)cc1C	M-HELA	Serotype 3	plaque count	EC50	>8 µM
CN(C)c1nc(Cl)nc2c1ncn2Cc1ccc(Cl)cc1	M-HELA	Serotype 13	plaque count	EC50	>5 µM
CN(C)c1nc(C(F)(F)F)nc2c1ncn2Cc1ccc([N+](=O)[O-])cc1	M-HELA	Serotype 1B	plaque count	EC50	0.07 µM
O=c1cc(-c2ccc(C3=NCCO3)cc2)oc2ccc(Cl)cc12	OHIO HELA	TYPE 1B	plaque count	EC50	14.51 µM
N#Cc1ccc(C2CCc3ccccc3O2)cc1	HeLa	TYPE 1B	plaque count	EC50	2.88 µM
Cc1ccc(C(=O)CCCCCCOc2ccc(C3=NCCO3)cc2Cl)s1	HeLa	TYPE 14	cytopathic effect	EC50	1.33 µM
N=C1c2ncn([C@H]3C[C@H](O)[C@@H](CO)O3)c2NCN1OCc1cccc(F)c1	KB	Type 1A/strain 2060	cytopathic effect	EC50	320 µg/mL
Nc1ncnc2c1ncn2[C@@H]1C[C@H](NC=O)[C@@H](O)[C@H]1O	HFF	TYPE 2		EC50	>100 µg/mL
Cc1ccccc1CO[n+]1cnc2c(ncn2[C@@H]2O[C@H](CO)[C@@H](O)[C@H]2O)c1N.F[B-](F)(F)F	KB	Type 1A/strain 2060	cytopathic effect	EC50	320 µg/mL
CCOC(=O)c1ccc(OCCC2CCN(c3ccc(C)nn3)CC2)cc1	KB	6258-CV44 (ICAM-1 receptor group 64)	neutral red	EC50	0.813 µM
CO/N=C/c1ccc(OCCCN2CCN(c3ccc(Cl)nn3)CC2)cc1	KB	TYPE 1A	cytopathic effect / visual reading	EC50	0.01 µg/mL
N=c1c2ncn([C@H]3C[C@H](O)[C@@H](CO)O3)c2ncn1O	KB	Type 1A/strain 2060	cytopathic effect	EC50	10 µg/mL
Cc1c(-c2ccccc2)n(-c2cccc(F)c2)c2ccc(C(C)C)cc2c1=O	HELA-OHIO	61/6669-CV39	cytopathic effect	EC50	0.29 µg/mL
CC(C)S(=O)(=O)n1c(N)nc2ccc(C(C(N)=O)c3cccc(F)c3F)cc21	HeLa	1059 (serotype 14)	plaque count	EC50	0.01 µg/mL
CCOc1cc(CCCOc2c(C)cc(-c3noc(C)n3)cc2C)on1	HeLa	Serotype 15	cytopathic effect	EC50	0.312 µg/mL
CCOC(=O)/C=C/[C@H](C[C@@H]1CCNC1=O)NC(=O)[C@H](Cc1ccc(F)cc1)NC(=O)[C@@H](NC(=O)c1cc(C)on1)C(C)(C)C	H1-HELA	Serotype 1A	XTT	EC50	0.03 µM
CO/N=C/c1cc(C)c(OCCC2CCN(c3ccc(Cl)nn3)CC2)c(C)c1	KB	TYPE 1A	cytopathic effect / visual reading	EC50	0.0063 µg/mL
Clc1ccc(C2CCc3cc(C4=NCCO4)ccc3O2)cc1	HeLa	TYPE 1B	plaque count	EC50	0.51 µM
COc1cc(C(=O)Oc2c(-c3ccc(Cl)c(Cl)c3)oc3ccccc3c2=O)cc(OC)c1OC(C)=O	HeLa	Serotype 14	plaque count	EC50	>6.25 µM
Cc1c(-c2ccccc2)n(-c2ccc(F)cc2)c2ccc(C(C)C)cc2c1=O	HELA-OHIO	Clinical isolate	cytopathic effect	EC50	0.03 µg/mL
N#Cc1ccc2c(c1)CCC(c1ccc(Cl)cc1)O2	HeLa	TYPE 1B	plaque count	EC50	0.0085 µM
CC[C@H]1OC(=O)[C@H](C)[C@@H](O[C@H]2C[C@@](C)(OC)[C@@H](O)[C@H](C)O2)[C@H](C)[C@@H](O[C@@H]2O[C@H](C)C[C@H](N(C)C)[C@H]2O)[C@](C)(O)C[C@@H](C)C(=O)[C@H](C)[C@@H](O)[C@]1(C)O	Human tracheal epithelial cells	TYPE 14		EC50	<10 µM
NSc1ncnc2c1ncn2[C@@H]1O[C@H](CO)[C@@H](O)[C@@H]1O		TYPE 1A	cytopathic effect	EC50	>320 µM
COc1cc(/C=C/C(=O)Oc2c(-c3ccc(Cl)cc3)oc3ccccc3c2=O)ccc1O	HeLa	Serotype 1B	plaque count	EC50	3.6 µM
CSc1nsc(-c2ccc(OCCOc3ccc([N+](=O)[O-])cc3)cc2)c1C#N	HELA-OHIO	Serotype 15 (group B)	cytopathic effect	EC50	>2 µM
CCc1nc(-c2cc(C)c(OCCCc3cc(COC)no3)c(C)c2)no1	HeLa	Serotype 86	cytopathic effect	EC50	0.025 µg/mL
N#Cc1ccc(Oc2ccc(Cl)c(Cl)c2)nc1	HeLa	TYPE 2	cytopathic effect	EC50	5 µM
CSc1nsc(-c2ccc(OCCCOc3ccc(C#N)cc3)cc2)c1C#N	HELA-OHIO	Serotype 72 (group A)	cytopathic effect	EC50	>2 µM
COc1ccc(C(=O)CCCCOc2ccc(C#N)cc2)cc1		serotype 1A 1B 2 6 14 15 21 22 25 29 30 41 42 45 59 63 67 70 72 86 89		MIC80	>194 µM
CSc1nsc(-c2ccc(OCCCOc3ccccc3)cc2)c1C#N	HELA-OHIO	Serotype 86 (group A)	cytopathic effect	EC50	0.6 µM
CC(C)S(=O)(=O)n1c(N)nc2ccc(C(C(N)=O)c3cc(F)cc(F)c3)cc21	HeLa	1059 (serotype 14)	plaque count	EC50	0.06 µg/mL
Cc1ccc(C(=O)CCCCOc2ccc(C3=NCCO3)cc2)cc1	HeLa	Serotype 14	cytopathic effect	EC50	5.6 µM
CN(C)c1ccc(Cn2cnc3c(N(C)C)nc(C(F)(F)F)nc32)cc1	M-HELA	Serotype 30	plaque count	EC50	>8 µM
CC(=O)c1c(-c2ccc(Cl)cc2)oc2ccccc2c1=O	HeLa	Serotype 14	plaque count	EC50	2.12 µM
O=C(CCCCOc1ccc(C2=NCCO2)cc1)c1ccc(F)cc1		serotype 1A 1B 2 6 14 15 21 22 25 29 30 41 42 45 59 63 67 70 72 86 89		MIC80	>293 µM
Cc1cccc(CON2CNc3c(ncn3[C@@H]3O[C@H](CO)[C@@H](O)[C@H]3O)C2=N)c1	KB	Type 1A/strain 2060	cytopathic effect	EC50	100 µg/mL
COc1ccc(OCCCCCCn2ccnc2)c(Cl)c1	HeLa	TYPE 45	plaque count	EC50	29.1 µM
CS(=O)(=O)c1ccc(Oc2ccc(Cl)c(Cl)c2)nc1		89	cytopathic effect	EC50	4.1 µM
CSc1ccc(C(=O)CCCCOc2ccc(C#N)cc2)cc1		serotype 1A 1B 2 6 14 15 21 22 25 29 30 41 42 45 59 63 67 70 72 86 89		MIC80	>307 µM
C=CCO/N=C/c1cc(C)c(OCCCc2cc(C)no2)c(C)c1	MRC-5	TYPE 2	cytopathic effect / visual reading	EC50	<0.05 µg/mL
N=C(N)c1ncn([C@@H]2O[C@H](CO)[C@@H](O)[C@H]2O)n1				EC50	>100 µM
CCOC(=O)c1ccc(OCCCCC(=O)c2ccc(SC)cc2)cc1	HeLa	Serotype 2	cytopathic effect	EC50	11.7 µM
COc1cc(/C=C/C(=O)Oc2c(-c3ccc(Cl)c(Cl)c3)oc3ccccc3c2=O)ccc1O	HeLa	Serotype 14	plaque count	EC50	>1.56 µM
Cc1ccc(C(=O)CCCCCCOc2ccc(C3=N[C@H](C)CO3)cc2)s1	HeLa	TYPE 14	cytopathic effect	EC50	1.55 µM
Cc1ccc(C(=O)CCCCOc2ccc(C3=NCCO3)cc2)cc1Cl	HeLa	Serotype 14	cytopathic effect	EC50	43.4 µM
O=C1CC(c2ccc(C3=NCCO3)cc2)Oc2ccc(Cl)cc21	OHIO HELA	TYPE 1B	plaque count	EC50	5.16 µM
CC(=O)Oc1ccc(/C=C/C(=O)Oc2c(-c3ccc(Cl)cc3)oc3ccccc3c2=O)cc1OC(C)=O	HeLa	Serotype 1B	plaque count	EC50	>0.39 µM
O=P1(O)OCC2O[C@@H](n3cnc4c(SCc5ccccc5)ncnc43)[C@H](O)C2O1		TYPE 2		MIC	10 µg/mL
COc1cc(C(=O)Oc2c(-c3ccc(Cl)c(Cl)c3)oc3ccccc3c2=O)cc(OC)c1O	HeLa	Serotype 14	plaque count	EC50	>1.56 µM
Cn1cnc2c(ncn2[C@@H]2O[C@H](CO)[C@@H](O)[C@H]2O)c1=N	KB	Type 1A/strain 2060	cytopathic effect	EC50	100 µg/mL
CC(C)c1ccc(Cn2cnc3c(N(C)C)nc(Cl)nc32)cc1	M-HELA	Serotype 1B	plaque count	EC50	0.07 µM
CCOC(=O)/C=C/[C@H](CCC(N)=O)NC(=O)[C@H](Cc1ccccc1)NC(=O)[C@H](CC(C)C)NC(=O)OCc1ccccc1	H1-HELA	TYPE 14		EC50	0.54 µM
O=C(CCCCOc1c(Cl)cc(C2=NCCO2)cc1Cl)c1ccc(Cl)cc1	HeLa	Serotype 2	cytopathic effect	EC50	>35 µM
CC(C)S(=O)(=O)n1c(N)nc2ccc(C(C(N)=O)c3ccccc3)cc21	HeLa	1059 (serotype 14)	plaque count	EC50	0.04 µg/mL
Cc1ccc(C(=O)CCCCCCOc2ccc(C3=NC(C)(C)CO3)cc2)s1	HeLa	TYPE 2	cytopathic effect	EC50	1.34 µM
CNC(=O)C(c1cccc(F)c1)c1ccc2nc(N)n(S(=O)(=O)N(C)C)c2c1	HeLa	1059 (serotype 14)	plaque count	EC50	0.03 µg/mL
CCO/N=C/c1ccc(OCCCN2CCN(c3ccc(C)nn3)CC2)cc1	KB	TYPE 1A	cytopathic effect / visual reading	EC50	0.05 µg/mL
CN(C)c1nc(C(F)(F)F)nc2c1ncn2Cc1ccc(Cl)cc1Cl	M-HELA	Serotype 14	plaque count	EC50	>8 µM
N#Cc1ccc(C2CCc3cc(C#N)ccc3O2)cc1	HeLa	TYPE 1B	plaque count	EC50	0.023 µM
CCOC(=O)c1ccc(OCCCCC(=O)c2ccc(F)cc2)cc1	HeLa	Serotype 2	cytopathic effect	EC50	6.1 µM
CCOC(=O)c1ccc(OCCCOc2ccc(-c3snc(SC)c3C#N)cc2)cc1	HELA-OHIO	Serotype 15 (group B)	cytopathic effect	EC50	>2 µM
C=CCO/N=C/c1ccc(OCCCCN2CCN(c3cccnn3)CC2)cc1	KB	TYPE 1A	cytopathic effect / visual reading	EC50	0.05 µg/mL
CCC1COC(c2ccc(OCCCCCCC(=O)c3ccc(C)s3)cc2)=N1	HeLa	TYPE 2	cytopathic effect	EC50	1.25 µM
CCOC(=O)c1cc(Cl)c(OCCCCC(=O)c2ccc(Cl)cc2)c(Cl)c1	HeLa	Serotype 14	cytopathic effect	EC50	7.6 µM

Repeating the final 7 entries:

smiles | cell line | strain | read by | read-out | result
CN(C)c1nc(C(F)(F)F)nc2c1ncn2Cc1ccc(Cl)cc1Cl | M-HELA | Serotype 14 | plaque count | EC50 | >8 µM
N#Cc1ccc(C2CCc3cc(C#N)ccc3O2)cc1 | HeLa | TYPE 1B | plaque count | EC50 | 0.023 µM
CCOC(=O)c1ccc(OCCCCC(=O)c2ccc(F)cc2)cc1 | HeLa | Serotype 2 | cytopathic effect | EC50 | 6.1 µM
CCOC(=O)c1ccc(OCCCOc2ccc(-c3snc(SC)c3C#N)cc2)cc1 | HELA-OHIO | Serotype 15 (group B) | cytopathic effect | EC50 | >2 µM
C=CCO/N=C/c1ccc(OCCCCN2CCN(c3cccnn3)CC2)cc1 | KB | TYPE 1A | cytopathic effect / visual reading | EC50 | 0.05 µg/mL
CCC1COC(c2ccc(OCCCCCCC(=O)c3ccc(C)s3)cc2)=N1 | HeLa | TYPE 2 | cytopathic effect | EC50 | 1.25 µM
CCOC(=O)c1cc(Cl)c(OCCCCC(=O)c2ccc(Cl)cc2)c(Cl)c1 | HeLa | Serotype 14 | cytopathic effect | EC50 | 7.6 µM